Pooled drug test results. Numbers come from NIAID ChemDB, via PubChem.

Common to all: whole-cell or culture tests; organism: Mycobacterium tuberculosis

a–b is a range or a potency band. An empty or dashed field is not shown. ECn is the concentration giving n% inhibition of infection, replication or growth. A number after MIC or MFC names an inhibition level or a share of isolates. MIC bound comes from a single tested concentration. Rows are shuffled and stem from different studies. Percent inhibition refers to the dose given; in toxicity tests it is the harm to the cells.

| SMILES | changes | method | strain | tested at | read-out | value |
|---|---|---|---|---|---|---|
| O=C(N/N=C/c1c(F)c(F)c(F)c(F)c1F)c1cnc(C2C3CC4CC(C3)CC2C4)[nH]1 |  |  | H37Rv | 6.25 µg/mL | inhibition | 5% |
| CCOC(=O)N1CCN(c2ccc3c(-c4ccccc4)cc(=O)[nH]c3n2)CC1 |  |  | H37Rv |  | EC50 | >12.5 µg/mL |
| COc1nc2c(c(O)c(C)c(=O)n2O[C@@H]2OCC(OC(C)=O)[C@H](OC(C)=O)C2OC(C)=O)c(=O)n1C |  | resazurin | H37Rv |  | MIC bound | >6.25 µg/mL |
| NNC(=O)c1nc(C2CCCCC2)[nH]c1C1CCCCC1 |  |  | H37Rv | 6.25 µg/mL | inhibition | 37% |
| CCOC(=O)c1cn(CC)c2c(cc([N+](=O)[O-])c3cccnc32)c1=O | gyrA mutation A90V |  | H37Rv |  | MIC90 | >50 µM |
| CC(=O)Nc1ccc(/C=N/NC(N)=S)cc1 |  |  | Isolate B drug-susceptible |  | MIC | 15 µg/mL |
| NNC(=O)c1ccncc1 |  |  | Isolate 40 |  | MIC | 2 µg/mL |
| C=C(NC(=O)c1csc(-c2nc3c(cc2O)-c2nc(cs2)C(=O)N[C@@H]([C@@H](C)O)C(=O)N/C(=C(\C)OC)c2nc(cs2)C(=O)N[C@@H]2c4nc(cs4)C(=O)N[C@@H](COC(=O)c4c5c6c(cccc6n4O)COC(=O)[C@@H](O[C@H]4C[C@](C)(O)[C@H](N(C)C)[C@H](C)O4)[C@H]2OC5)c2nc-3cs2)n1)C(N)=O |  | broth dilution | Clinical isolate 10367 |  | MIC | ≤2.5 µM |
| CCCCn1c(C)nc2c(NN=C(N)N)c3ccccc3c(N=NC(=N)N)c21 |  | BACTEC | H37Rv | 12.5 µg/mL | inhibition | 91% |
| C=C1C(=O)OC2C/C(C)=C/CC/C(C)=C/[C@H](O)[C@H]12 |  |  | H37Rv |  | MIC | 16 µg/mL |
| CO/C(C)=C1/NC(=O)[C@H]([C@@H](C)O)NC(=O)c2csc(n2)-c2cc(OC)c(-c3nc(C(=O)NCCCN4CCOCC4)cs3)nc2-c2csc(n2)[C@@H]2COC(=O)c3c4c5c(cccc5n3O)COC(=O)[C@@H](O[C@H]3C[C@](C)(O)[C@H](N(C)C)[C@H](C)O3)[C@@H](OC4)[C@H](NC(=O)c3csc1n3)c1nc(cs1)C(=O)N2 |  | broth dilution | H37Rv |  | MIC | ≤1 µM |
| Cc1ccc(NC(=S)N=Nc2c(O)n(C)c3ccc(OC(F)(F)F)cc23)cc1 |  | broth dilution / resazurin | H37Rv |  | EC90 | >100 µg/mL |
| FC(F)(F)c1ccc2c(c1)N(CCCCl)c1ccccc1S2 |  |  | H37Rv |  | MIC | 12.5 µg/mL |
| C/C(=C\CO)CCC[C@H](C)CCC[C@H](C)CCCC(C)C |  |  | H37Rv |  | MIC | 2 µg/mL |
| CCCCCc1cc(OC)c2ccccc2n1 |  |  | MT10 |  | MIC | 50 µg/mL |
| Oc1c2c(c3cccc4cccc1c43)=Nc1ccccc1S2 |  | BACTEC | H37Rv |  | MIC bound | >12.5 µg/mL |
| CO[C@H]1/C=C/O[C@@]2(C)Oc3c(C)c(O)c4c(O)c(c5c(c4c3C2=O)NC2(CCN(CC(C)C)CC2)N=5)=NC(=O)/C(C)=C\C=C\[C@H](C)[C@H](O)[C@@H](C)[C@@H](O)[C@@H](C)[C@H](OC(C)=O)[C@@H]1C |  |  | 2235 (rifampicin-susceptible) |  | MIC | ≤0.062 µg/mL |
| CCCCCCc1ccc(Oc2ccccc2)c(O)c1 |  |  | NHN382 |  | MIC99 | 3.1 µg/mL |
| C=C1[C@@H]([C@@]2(C)C=CC(=O)C(C)(C)[C@@H]2CC(=O)OC)CC[C@@]2(C)[C@H](c3ccoc3)OC(=O)[C@H]3O[C@]132 |  | BACTEC | H37Rv |  | MIC bound | >12.5 µg/mL |
| COc1ccc2c(-c3ccccc3)cc(N3CCNCC3)nc2n1 |  |  | H37Rv |  | EC50 | <12.5 µg/mL |
| CO[C@H]1/C=C/O[C@@]2(C)Oc3c(C)c(O)c4c(O)c(c(/C=N/N5CCN(C6CCCC6)CC5)c(O)c4c3C2=O)NC(=O)/C(C)=C\C=C\[C@H](C)[C@H](O)[C@@H](C)[C@@H](O)[C@@H](C)[C@H](OC(C)=O)[C@@H]1C |  |  | 12761 |  | MIC | 0.02 µg/mL |
| COc1cc(-c2nn3c(C(C)(C)C)nnc3s2)cc(OC)c1OC |  | resazurin | 18b |  | MIC | 16 µg/mL |
| O=C1C[C@@H]2[C@@H](c3ccccc3)[C@@H]3C(=O)c4ccccc4NC(=O)[C@H]3[C@]2(O)c2ccccc2N1 |  | BACTEC | H37Rv |  | MIC bound | >12.5 µg/mL |
| CC(C)(C)c1ncc(C(=O)NN)[nH]1 |  |  | H37Rv |  | MIC | >6.25 µg/mL |
| COc1ccc(CCC2CCc3ccccc3N2C)cc1OC |  |  | MT8 |  | MIC | >100 µg/mL |
| CC1=C2[C@@H](OC1=O)[C@]1(C)C(=O)CC[C@H]1[C@@H](C)C[C@@H]2O |  |  | H37Rv |  | MIC | 128 µg/mL |
| COc1cc(C2c3cc4c(cc3[C@@H](OC3OC5CO[C@@H](C)OC5C(O)C3O)[C@H]3COC(=O)C23)OCO4)cc(OC)c1OC |  | BACTEC | H37Rv |  | MIC | ≥12.5 µg/mL |
| CCCCCCCCc1ccc(Oc2ccccc2)c(O)c1 |  |  | NHN20 |  | MIC99 | 2.4 µg/mL |
| CC(=O)NCCSS(=O)(=O)CCCCS(=O)(=O)SCCNC(C)=O |  | BACTEC | H37Rv | 12.5 µg/mL | inhibition | 0% |
| Nc1cc(-c2ccccc2)c2ccc(=O)[nH]c2n1 |  |  | H37Rv | 12.5 µg/mL | inhibition | 0% |
| C[C@H]1COc2c(N3CCN(C)CC3)c(F)cc3c(=O)c(C(=O)O)cn1c23 |  |  | 3181-5 |  | MIC | 1 µg/mL |
| CCOC(=O)N1CCN(c2cc(-c3ccccc3)c3ccc(NC(C)=O)nc3n2)CC1 |  |  | H37Rv | 12.5 µg/mL | inhibition | 0% |
| CSc1ccc(NC(=O)c2cc3c(s2)CN(C2CC2)C3)cc1 |  | resazurin | 18b |  | MIC | 8 µg/mL |
| Cn1c(O)c(N=NC(=S)Nc2ccc(F)cc2)c2cc(OC(F)(F)F)ccc21 |  | broth dilution / resazurin | H37Rv |  | EC90 | >100 µg/mL |
| NNC(=O)c1cnc(C2CCCCC2)[nH]1 |  |  | H37Rv |  | MIC | >6.25 µg/mL |
| CC(=O)OC1SC(C)(C)n2c1nc1ccccc1c2=O |  |  | H37Rv |  | MIC bound | >6.25 µg/mL |
| O=S(=O)(NCCC1=CCCCC1)c1ccc(Cl)s1 |  | resazurin | Clinical isolate |  | MIC | 16 µg/mL |
| CO/C(C)=C1/NC(=O)[C@H]([C@@H](C)O)NC(=O)c2csc(n2)-c2cc(O)c(-c3nc(C(=O)NCCc4c[nH]cn4)cs3)nc2-c2csc(n2)[C@@H]2COC(=O)c3c4c5c(cccc5n3O)COC(=O)[C@@H](O[C@H]3C[C@](C)(O)[C@H](N(C)C)[C@H](C)O3)[C@@H](OC4)[C@H](NC(=O)c3csc1n3)c1nc(cs1)C(=O)N2 | Multidrug-resistant | broth dilution | Clinical isolate 565 |  | MIC | 10–100 µM |
| CCCC(C)C(=O)Nc1nc2c(s1)C(=O)CC(C)(C)C2 |  | resazurin | 18b |  | MIC | 2 µg/mL |
| O=[N+]([O-])c1ccc(NC(=S)N=Nc2c(O)[nH]c3ccc(OC(F)(F)F)cc23)cc1 |  | broth dilution / resazurin | H37Rv |  | EC90 | >100 µg/mL |
| CC1(C)CCC[C@@]2(C)C1C[C@H](O)[C@]1(C)C2CCC2[C@@]3(C)CC[C@H](C(C)(C)O)C3CC[C@]21C |  |  | H37Rv |  | MIC | >128 µM |
| C=CCNC(=S)/N=C/C(C(=O)Nc1ccccc1OC)=C(/C)O |  | resazurin | H37Rv |  | MIC bound | >6.25 µg/mL |
| CC(C)n1[nH]c(=O)c2c1NC(=O)CSC2c1ccccc1 |  | resazurin | 18b |  | MIC | 8 µg/mL |
| CCOC(=O)N1CCN(c2ccc3c(-c4ccccc4)cc(N4CCN(C(=O)OCC)CC4)nc3n2)CC1 |  |  | H37Rv |  | EC50 | <12.5 µg/mL |
| CC1COc2c(N3CCN(C(N)=NC#N)CC3)c(F)cc3c(=O)c(C(=O)O)cn1c23 |  | broth dilution | ATCC 35837 |  | MIC | 0.625 µg/mL |
| CNC(=S)N=Nc1c(O)n(C)c2ccc(C)cc12 |  | broth dilution / resazurin | H37Rv |  | EC90 | >100 µg/mL |
| O=C1c2ccccc2C(=O)c2c1nnn2-c1ccccc1 |  | BACTEC | H37Rv |  | MIC bound | >12.5 µg/mL |
| CO[C@H]1/C=C/O[C@@]2(C)Oc3c(C)c(O)c4c(O)c(c(/C=N/N5CCN(C6CCCC6)CC5)c(O)c4c3C2=O)NC(=O)/C(C)=C\C=C\[C@H](C)[C@H](O)[C@@H](C)[C@@H](O)[C@@H](C)[C@H](O)[C@@H]1C |  |  | Isolate 900241 drug-susceptible |  | MIC | 0.25 µg/mL |
| CCOP(=O)(OCC)/C(C#N)=C\c1cccn1N(C)C |  | BACTEC | H37Rv |  | MIC bound | >12.5 µg/mL |
| Cc1ccc2c(c1)c(N=NC(=S)Nc1ccc(Br)cc1)c(O)n2C |  | broth dilution / resazurin | H37Rv |  | EC90 | >100 µg/mL |
| CCOc1ccc(-n2c(=O)c3nn4c(=O)n(-c5ccc(OCC)cc5)c(=O)c4nn3c2=O)cc1 |  | BACTEC | H37Rv | 12.5 µg/mL | inhibition | 0% |
| CCC(CC)C(=O)Nc1occ2c1CC(C)CC2 |  | resazurin | 18b |  | MIC | 16 µg/mL |
| Cc1ccc2[nH]c(O)c(N=NC(=S)Nc3ccc(Br)cc3)c2c1 |  | broth dilution / resazurin | H37Rv |  | EC50 | 22.7 µg/mL |
| O=C(O)c1cnccn1 |  |  | H6927 |  | MIC | 480 µg/mL |
| Cc1cc(=O)n2nc(CSc3n[nH]c(=S)s3)sc2n1 |  | resazurin | H37Rv | 6.25 µg/mL | inhibition | -8% |
| NNC(=O)c1nc(C2CCCC2)[nH]c1C1CCCC1 |  |  | H37Rv | 6.25 µg/mL | inhibition | 0% |
| COc1ccc(P2(=S)OC(C)(C)C(C)(C)O2)cc1 |  | BACTEC | H37Rv | 12.5 µg/mL | inhibition | 0% |
| Cc1ccc(CNC(=O)c2c(-c3ccc(Br)s3)noc2C)o1 |  | resazurin | 18b |  | MIC | 8 µg/mL |
| Cc1[nH]c2ccc(N(C)C)cc2c(=O)c1CNCc1ccccc1 |  | BACTEC | H37Rv |  | MIC bound | >12.5 µg/mL |
| O=c1cc(-c2ccccc2)c2ccc(N3CCNCC3)nc2[nH]1 |  |  | H37Rv |  | EC50 | >12.5 µg/mL |
| CC(C)c1ccc2c(c1)C=C1OC(=O)[C@]3(C)CCC[C@@]2(C)C13 |  | BACTEC | H37Rv |  | MIC bound | >12.5 µg/mL |
| CCn1cc(C(=O)O)c(=O)c2ccc(C)nc21 | gyrA mutation S91P |  | H37Rv |  | MIC90 | >50 µM |
| NNC(=O)c1ccncc1 |  | broth dilution | Clinical isolate 12556 |  | MIC | ≤0.2 µM |
| COc1ccc(C2C(=O)c3ccc(OC)cc3OC2c2ccccc2)cc1 |  | BACTEC | H37Rv |  | MIC bound | >12.5 µg/mL |
| O=C(N/N=C/c1ccc(N2CCOCC2)o1)c1ccncc1 |  | resazurin | 18b |  | MIC | 0.25 µg/mL |
| c1ccc(-c2cc(N3CCNCC3)nc3nc(N4CCNCC4)ccc23)cc1 |  |  | H37Rv |  | EC50 | >12.5 µg/mL |
| CC[C@@H](CO)NCCN[C@@H](CC)CO |  |  | H37Rv |  | MIC | 3.8 µg/mL |
| CO/C(C)=C1/NC(=O)[C@H]([C@@H](C)O)NC(=O)c2csc(n2)-c2cc(O)c(-c3nc(C(=O)NCCCN4CCOCC4)cs3)nc2-c2csc(n2)[C@@H]2COC(=O)c3c4c5c(cccc5n3O)COC(=O)[C@@H](O[C@H]3C[C@](C)(O)[C@H](N(C)C)[C@H](C)O3)[C@@H](OC4)[C@H](NC(=O)c3csc1n3)c1nc(cs1)C(=O)N2 | Rifampicin- and isoniazid-resistant | broth dilution | Clinical isolate 18460 |  | MIC | ≤2.5 µM |
| Cc1ccc(NC(=O)Oc2ccc(C#N)cc2)cc1Cl |  | BACTEC | H37Rv | 12.5 µg/mL | inhibition | 37% |
| CO[C@H]1/C=C/O[C@@]2(C)Oc3c(C)c(O)c4c(=O)c(c5oc6cc(N7CCN(C(C)C)CC7)cc(=O)c6nc5c4c3=C2O)NC(=O)/C(C)=C\C=C\[C@H](C)[C@H](O)[C@@H](C)[C@@H](O)[C@@H](C)[C@H](OC(C)=O)[C@@H]1C |  |  | 2749 (rifampin-sensitive) |  | MIC | 0.05 µg/mL |
| [N-]=[N+]=CC(=O)OC[C@@H]1NC(=O)[C@H](COC(=O)C=[N+]=[N-])NC1=O |  | BACTEC | H37Rv |  | MIC | ≥12.5 µg/mL |
| CO[C@H]1/C=C/O[C@@]2(C)Oc3c(C)c(O)c4c(O)c(c(/C=N/N5CCN(C/C=C/c6ccccc6)CC5)c(O)c4c3C2=O)NC(=O)/C(C)=C\C=C\[C@H](C)[C@H](O)[C@@H](C)[C@@H](O)[C@@H](C)[C@H](OC(C)=O)[C@@H]1C |  |  | 2912 (rifampin-sensitive) |  | MBC | 0.1 µg/mL |

For reference, 6 entries again:

SMILES | changes | method | strain | tested at | read-out | value
CCCCCCc1ccc(Oc2ccccc2)c(O)c1 |  |  | NHN382 |  | MIC99 | 3.1 µg/mL
CC1COc2c(N3CCN(C(N)=NC#N)CC3)c(F)cc3c(=O)c(C(=O)O)cn1c23 |  | broth dilution | ATCC 35837 |  | MIC | 0.625 µg/mL
CCCCCCCCc1ccc(Oc2ccccc2)c(O)c1 |  |  | NHN20 |  | MIC99 | 2.4 µg/mL
CO[C@H]1/C=C/O[C@@]2(C)Oc3c(C)c(O)c4c(=O)c(c5oc6cc(N7CCN(C(C)C)CC7)cc(=O)c6nc5c4c3=C2O)NC(=O)/C(C)=C\C=C\[C@H](C)[C@H](O)[C@@H](C)[C@@H](O)[C@@H](C)[C@H](OC(C)=O)[C@@H]1C |  |  | 2749 (rifampin-sensitive) |  | MIC | 0.05 µg/mL
CCOc1ccc(-n2c(=O)c3nn4c(=O)n(-c5ccc(OCC)cc5)c(=O)c4nn3c2=O)cc1 |  | BACTEC | H37Rv | 12.5 µg/mL | inhibition | 0%
CCOC(=O)N1CCN(c2cc(-c3ccccc3)c3ccc(NC(C)=O)nc3n2)CC1 |  |  | H37Rv | 12.5 µg/mL | inhibition | 0%